From PMC12548384
The exact form of at least one protein or probe is not confirmed.

Biological target: T1, CmrR (Clostridioides difficile R20291) (UniProt A0A9R0CG09)
T1 sequence: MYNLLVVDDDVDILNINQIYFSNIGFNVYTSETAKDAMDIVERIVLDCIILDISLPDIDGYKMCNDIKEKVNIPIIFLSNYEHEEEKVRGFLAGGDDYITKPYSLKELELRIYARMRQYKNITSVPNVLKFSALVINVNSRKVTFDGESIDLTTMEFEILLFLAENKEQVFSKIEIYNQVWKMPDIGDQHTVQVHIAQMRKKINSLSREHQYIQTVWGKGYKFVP
Assay: EMSA
Details: up to 1.5 uM CmrR; EMSA: 15 nM probe, 1x binding buffer 20 mM Tris pH 8, 1 mM EDTA, 10 mM MgCl2, 100 mM NaCl, 5% glycerol, plus half volume protein in His6 buffer; recombinant protein; protein details: N-terminal 6xHis (pET28a+); probe letters rebuilt from the primers and the genome

Sequence: CTAGCCAATAGACAAGTTTCTAGAAAAATAATAAATTTATAAGTGAAAATGACTTTAAGCTCCATTCTCCAACAATCGGAGACTTTAATTAGTATTTAATAATAAATCTTAATGTTCAATACAATATTCAAGAATTGTTCAAAAATACTTAAGTATTATAGTCTAGTTTGTAAAGATATTATAAAATAATAATACTAGTTATATATGAAAATAAAACATTATAATTTGTAATAATTATAAAACTTGAGATTATGATTAAAATACCTTTGAATGGAGTGGTGTAATGTATAATTTACTGGTTGTAGATGATGATGTTG (double strand) [probe 8 (cmr switch in other orientation than probe 5)]
- binding result: binds
